Reference: US12533408B2, “Treatment regimen for the treatment of autoimmune disorders” (Merck Patent GmbH, priority 2020, dated 2026)

Key:
[1] = system: Influenza strain Victoria (Colorado/B); assay: Hemagglutination inhibition (HAI) antibody titer, Victoria (Colorado/B); assay type: in vivo, influenza B virus; settings: for Victoria (Colorado/B) antibody titer (HAI): c1-c11 = trial month Scr,0,1,2,3,6,12,14,15,18,End; for Victoria (Colorado/B) HAI titer: vaccinated strain, by trial month
[2] = system: Influenza strain Yamagata (Phuket/B); assay: Hemagglutination inhibition (HAI) antibody titer, Yamagata (Phuket/B); assay type: in vivo, influenza B virus; settings: for Yamagata (Phuket/B) antibody titer (HAI): c1-c11 = trial month Scr,0,1,2,3,6,12,14,15,18,End; for Yamagata (Phuket/B) HAI titer: vaccinated strain, by trial month
[3] = Patient Spain 2, vaccinated 49 days after first dose of course 1
[4] = Patient Australia 1, vaccinated 133 days after first dose of Mavenclad course 2
[5] = Patient Australia 1, vaccinated 133 days after first dose of Mavenclad course 2, Extended Panel
[6] = Patient Canada 1, vaccinated 104 days after first dose of Mavenclad course 1, Extended Panel
[7] = Patient Finland 1, vaccinated 187 days after first dose of Mavenclad course 1
[8] = Patient Finland 1, vaccinated 187 days after first dose of Mavenclad course 1, Extended Panel
[9] = Patient France 1, vaccinated 33 days after first dose of Mavenclad course 2
[10] = Patient France 1, vaccinated 33 days after first dose of Mavenclad course 2, Extended Panel

## Nc1nc(Cl)nc2c1ncn2[C@H]1C[C@H](O)[C@@H](CO)O1 [cladribine tablets, Cladribine]
[1]; Patient Canada 1, vaccinated 104 days after first dose of course 1
  Victoria (Colorado/B) antibody titer (HAI): 40
[1]; [3]
  Victoria (Colorado/B) antibody titer (HAI): 20
[1]; [4]
  Victoria (Colorado/B) HAI titer: 40
[1]; [5]
  Victoria (Colorado/B) HAI titer: 40
[1]; [6]
  Victoria (Colorado/B) HAI titer: 40
[1]; [7]
  Victoria (Colorado/B) HAI titer: 40 and 60
[1]; [8]
  Victoria (Colorado/B) HAI titer: 40 and 60
[1]; [9]
  Victoria (Colorado/B) HAI titer: 80 and 40
[1]; [10]
  Victoria (Colorado/B) HAI titer: 80 and 40
[2]; Patient Canada 1, vaccinated 104 days after first dose of course 1, listed as Mavenclad
  Yamagata (Phuket/B) antibody titer (HAI): 40 and 20
[2]; Patient Spain 1, vaccinated 113 days after first dose of course 1, listed as Mavenclad
  Yamagata (Phuket/B) antibody titer (HAI): 40 and 30
[2]; [3]
  Yamagata (Phuket/B) antibody titer (HAI): 20
[2]; Patient Spain 3, vaccinated 72 days after first dose of course 1, listed as Mavenclad
  Yamagata (Phuket/B) antibody titer (HAI): 20 and 30 and 40
[2]; [4]
  Yamagata (Phuket/B) HAI titer: 80 and 60 and 40
[2]; [5]
  Yamagata (Phuket/B) HAI titer: 80 and 60 and 40
[2]; [6]
  Yamagata (Phuket/B) HAI titer: 40 and 20
[2]; [7]
  Yamagata (Phuket/B) HAI titer: 80
[2]; [8]
  Yamagata (Phuket/B) HAI titer: 80
[2]; [9]
  Yamagata (Phuket/B) HAI titer: 80 and 40
[2]; [10]
  Yamagata (Phuket/B) HAI titer: 80 and 40
[2]; Patient Spain 1, vaccinated 113 days after first dose of Mavenclad course 1, Extended Panel
  Yamagata (Phuket/B) HAI titer: 40 and 30
[2]; Patient Spain 3, vaccinated 72 days after first dose of Mavenclad course 1, Extended Panel
  Yamagata (Phuket/B) HAI titer: 20 and 30 and 40

Several values for one entry are separate records, joined by “and”; a condition that tells them apart may be missing. Equal entries are not always repeated.
